Pooled drug test results. Numbers come from NIAID ChemDB, via PubChem.

Common to all: whole-cell or culture tests; organism: Candida albicans

Rows are shuffled and stem from different studies.

compound | method | read-out | changes | strain or isolate | result
Cc1c(N2CC[C@@H](C3CC3N)C2)c(F)cn2c(=O)c(C(=O)O)cc(C3CC3)c12 | - | MIC | - | CCH442 | >100 µg/mL
CCCCCCCCC[C@@H](O)[C@H](C)N | - | MIC | - | MTCC 7315 | 9.9 µM
C=C(Cl)/C=C/[C@H](O)CC(=C)C[C@H]1OC2[C@@H](O)[C@]3(O)C[C@@H](O)[C@H](C)[C@H](CCC/C=C\[C@@H]4C[C@@H](O)C[C@]5(C[C@H](OC)CC(CC(=O)[C@@H](C)[C@H](OC(C)=O)[C@@H](C)C(=C)C[C@@H]6C[C@@](C)(O)C[C@]7(C[C@H](OC(C)=O)CC(CC(=O)O[C@@H]([C@@H]1O)[C@H]2C)O7)O6)O5)O4)O3 | - | MFC | - | ATCC 32354 | 3.12 µg/mL
CC(C)(C)C1CCC(CN2C3=NC[C@H](CC4CCCCC4)N3C[C@@H]2CC2CCCCC2)CC1 | - | MIC | - | ATCC 10231 | 5–8 µg/mL
CCNCC1CCN(c2c(F)cn3c(=O)c(C(=O)O)cc(C4CC4)c3c2C)CC1.Cl | - | MIC | - | CCH442 | >100 µg/mL
CCC(C)n1ncn(-c2ccc(N3CCN(c4ccc(OC[C@H]5CO[C@](Cn6cncn6)(c6ccc(Cl)cc6Cl)O5)cc4)CC3)cc2)c1=O | - | MIC50 | - | 4054 strains (fluconazole-susceptible) | 0.03 µg/mL
CC(CCc1ccccc1)C1=CCN(C)CC1 | - | MIC | - | C316 | 31 µg/mL
COc1ccc2c(Cc3ccc(Br)cc3)c3[n+](cc2c1OC)CCc1cc2c(cc1-3)OCO2.[Br-] | broth dilution | MIC80 | Fluconazole-resistant | Clinical isolate | 64 µg/mL
CCCCN1C2=NC[C@H](Cc3ccccc3)N2C[C@@H]1Cc1ccccc1 | - | MIC | - | ATCC 10231 | >250 µg/mL
Cc1c(N2CCC(n3cccc3)CC2)c(F)cn2c(=O)c(C(=O)O)cc(C3CC3)c12 | - | MIC | - | CCH442 | >100 µg/mL
O=Cc1cccc(O)c1O | broth dilution / turbidity | EC50 | - | ATCC 90028 | 0.04 µM
Cc1ccc(C(=O)/C=C/c2ccc(C(=O)N3C/C(=C\c4ccccc4)C(=O)/C(=C/c4ccccc4)C3)cc2)cc1 | - | MIC | - | 1 clinical isolate | >32 µg/mL
CC(C)(C)C1CCC(CN2C3=NC[C@@H](C4CCCCC4)N3C[C@H]2CC2CCCCC2)CC1 | - | EC50 | - | ATCC 10231 | 6.6 µg/mL
Cc1c(N2C[C@@H]3C(N)[C@@H]3C2)c(F)cn2c(=O)c(C(=O)O)cc(C3CC3)c12 | - | MIC | - | CCH442 | >100 µg/mL
CCN1C2=NC[C@H](CC3CCCCC3)N2C[C@@H]1Cc1ccccc1 | - | MIC | - | ATCC 10231 | >64 µg/mL
O=C1/C(=C/c2ccccc2)CN(C(=O)c2ccc(/C=C/C(=O)c3ccc([N+](=O)[O-])cc3)cc2)C/C1=C\c1ccccc1 | - | MIC | - | 1 clinical isolate | >32 µg/mL
CC(C)OC(=O)c1ccc(C[N+]2=C(c3ccco3)c3cc4c(cc3CC2)OCO4)cc1.[Br-] | broth dilution | MIC80 | Fluconazole-resistant | Clinical isolate | >64 µg/mL
C[C@H](CCC(=O)NCCNCCNC(=O)CC[C@@H](C)[C@H]1CCC2C3C(C[C@H](C)[C@@]21O)[C@@]1(C)CC[C@@H](O)CC1C[C@H]3O)[C@H]1CCC2C3C(C[C@H](C)[C@@]21O)[C@@]1(C)CC[C@@H](O)CC1C[C@H]3O | - | MIC | - | Isolate 2 | 0.011 µM
COc1ccc2c(Cc3ccccc3Br)c3[n+](cc2c1OC)CCc1cc2c(cc1-3)OCO2.[Br-] | broth dilution | MIC80 | Fluconazole-resistant | Clinical isolate | 32 µg/mL
CN1CCC2=C(CCCC2CCc2ccc(Cl)c(Cl)c2)C1 | - | MIC | - | C316 | 16 µg/mL
C1CCC(C[C@H]2CN=C3N(CCC45CC6CC(CC(C6)C4)C5)[C@@H](CC4CCCCC4)CN32)CC1 | - | EC50 | - | ATCC 10231 | 4.4 µg/mL
Cc1cnccc1CCCc1ccccc1 | - | MIC | - | C316 | 16 µg/mL
CCN1C2=NC[C@H](Cc3ccccc3)N2C[C@H]1C | - | MIC | - | ATCC 10231 | >250 µg/mL
O=C1/C(=C/c2ccccc2)CN(C(=O)c2ccc(/C=C/C(=O)c3ccc(O)cc3)cc2)C/C1=C\c1ccccc1 | - | MIC | - | 1 clinical isolate | >32 µg/mL
Clc1ccc([Se][Se]c2ccc(Cl)cc2)cc1 | broth dilution | MFC | - | - | >64 µg/mL
CC(C)(C)C1CCC(CN2C3=NC[C@@H](C4CCCCC4)N3C[C@@H]2CC2CCCCC2)CC1 | - | MIC | - | ATCC 10231 | 5–8 µg/mL
C[C@@H]1[C@H](O)[C@@H](C)/C=C/C=C/CC/C=C/C=C/C=C/C=C/C(O[C@H]2O[C@H](C)[C@@H](O)[C@H](N)[C@@H]2O)CC2O[C@](O)(CC(O)C(O)CCC(O)CC(O)CC(O)CC(=O)O[C@H]1C)CC(O)C2C(=O)O | broth dilution | MIC100 | - | LM 42V | 64 µg/mL
FC(F)(F)c1cccc([Se][Se]c2cccc(C(F)(F)F)c2)c1 | broth dilution | MIC | - | - | >64 µg/mL
C[C@H](Cc1ccc(O)c(O)c1)[C@@H](C)Cc1ccc(O)c(O)c1 | broth dilution | MIC100 | - | CCC 130-2000 | 250 µg/mL
O=C(NCCc1ccc2c(c1)OCO2)C(c1ccccc1)c1ccccc1 | broth dilution | MIC80 | Fluconazole-resistant | Clinical isolate | >64 µg/mL
C1CCC(C[C@H]2CN=C3N2C[C@@H](C2CCCCC2)N3CCC23CC4CC(CC(C4)C2)C3)CC1 | - | EC50 | - | ATCC 10231 | 9.4 µg/mL
CC1=C(N2C[C@H](O)C[C@@H]2CN)C(F)=CN2C(=O)C(C(=O)O)=CC(C3CC3)C12 | - | MIC | - | CCH442 | >100 µg/mL
O=C1/C(=C\c2ccccc2)CN(C(=O)c2ccc(/C=C/C(=O)c3ccc(Cl)c(Cl)c3)cc2)C/C1=C/c1ccccc1 | - | MIC | - | 1 clinical isolate | >32 µg/mL
O=C(O)c1ccccc1O | broth dilution / turbidity | EC50 | - | ATCC 90028 | 0.26 µM
COc1cc(O)c2c(c1)C(=O)c1c(cc3c(c1O)-c1c(cc(C)c(C(=O)NC(CO)C(=O)O)c1O)[C@H](OC1OC(C)C(O)C(OC4OCC(O)C(O)C4O)C1O)C3O)C2=O | - | MIC | - | A9540 | 3.1 µg/mL
O=C(O)/C=C/c1ccccc1 | broth dilution / turbidity | EC50 | - | ATCC 90028 | 0.64 µM
COc1ccc(/C=C/C(=O)N2C/C(=C\c3ccccc3)C(=O)/C(=C/c3ccccc3)C2)cc1OC | - | MIC | - | 1 clinical isolate | >32 µg/mL
CN1CCC2=C(CCCC2CCc2ccccc2)C1 | - | MIC | - | 1208E | 31 µg/mL
Cc1c(N2CCC(N3CCCCC3)CC2)c(F)cn2c(=O)c(C(=O)O)cc(C3CC3)c12.O=C(O)C(F)(F)F | - | MIC | - | CCH442 | >100 µg/mL
COc1cc(/C=C/C(=O)N2C/C(=C\c3ccccc3)C(=O)/C(=C/c3ccccc3)C2)cc(OC)c1OC | - | MIC | - | 1 clinical isolate | >32 µg/mL
Cc1c(N2CC[C@H]([C@@H](C)N)C2)c(F)cn2c(=O)c(C(=O)O)cc(C3CC3)c12 | - | MIC | - | CCH442 | >100 µg/mL
C[C@H]1[C@H](O)[C@@H](C)/C=C/C=C/C=C/C=C/C=C/C=C/C=C/[C@H](O[C@@H]2O[C@H](C)[C@@H](O)[C@H](N)[C@@H]2O)C[C@@H]2O[C@](O)(C[C@@H](O)C[C@@H](O)CC[C@H](O)[C@@H](O)C[C@@H](O)CC(=O)O[C@H]1C)C[C@H](O)[C@H]2C(=O)O | - | MIC50 | - | 85 strains (fluconazole-resistant) | 1 µg/mL
Cc1c(N2CCOCC2CN)c(F)cn2c(=O)c(C(=O)O)cc(C3CC3)c12.Cl | - | MIC | - | CCH442 | >100 µg/mL
CC(C)(C)C1CCC(CN2C3=NC[C@@H](CC4CCCCC4)N3C[C@@H]2C2CCCCC2)CC1 | - | MIC | - | ATCC 10231 | 16–32 µg/mL
CN(C/C=C/C#CC(C)(C)C)Cc1cccc2ccccc12 | - | MIC50 | - | CI_1 | 4 µg/mL
CC1=C(N2CCC(CNCCF)C2)C(F)=CN2C(=O)C(C(=O)O)=CC(C3CC3)C12 | - | MIC | - | CCH442 | >100 µg/mL

ECn is the concentration giving n% inhibition of infection, replication or growth. A number after MIC or MFC names an inhibition level or a share of isolates. Two numbers with a dash give a range or band. Blank or dashed fields: not listed here.